Tests used:
Assay in all cases: purified protein
Details in all cases: pH 7.0; 37.0 °C
[1] = system: CCCC(=O)Oc1ccc([N+](=O)[O-])cc1
[2] = system: CCCCCC(=O)Oc1ccc([N+](=O)[O-])cc1
[3] = system: CCCCCCCC(=O)Oc1ccc([N+](=O)[O-])cc1

Substance	Km [1] [mM]	kcat/Km [1] [M⁻¹ s⁻¹]	Km [2] [mM]	kcat/Km [2] [M⁻¹ s⁻¹]	Km [3] [mM]	kcat/Km [3] [M⁻¹ s⁻¹]
PE-PPE domain of Rv1430 (Mycobacterium tuberculosis H37Rv)	4.5	40400	4.2	59200	5.6	17600
Rv1430 (PE16), full-length (Mycobacterium tuberculosis H37Rv)	5.2	65500	5.15	104000	10	30500

Source: paper PMC3562317
